Laboratory results: US8366935B2, “Phyllanthus extract” (Phytrix Inc., priority 2008, dated 2013)

Target: T1, gp120 (Human immunodeficiency virus type 1 group M subtype B, UniProt P03375)
T1 construct: loaded with 25 μl of 6 mg/ml of gp120 (25 μM) in PBS pH 7.2
Type: binding, HIV
Conditions: micro-equilibrium dialysis, PBS pH 7.2, 12 hrs at 23° C.; average and deviation of five repetitions
Procedure: If needed, experiments were repeated within a smaller concentration range (i.e., 10 trials from 0.01 to 0.10 mmol). A total volume of either 50 μl was used in each analysis. Analytes were loaded in the opposite side of the membrane and equilibrium was obtained after incubation of 12 hrs at 23° C. The association constants were determined by non-linear regression analysis. Concentrations of compounds analysed were determined by HPLC analysis by comparison against an internal control (diethyl-7-dimethylaminocoumarineacetamide). HPLC controls were run with an equimolar amount of control and analyte. The relative concentrations of each analyte were determined at both sides of the membrane. […] Each data point was recollected after regeneration of the dialysis setup by exposing the non-protein containing face of the membrane to 5 ml of PBS pH 7.2 twice for 4 to 10 hrs at 23° C.

Phyllanthusiin E was tested, and the Kd was 22.1 ± 1.2 µM.
